# Results published in patent publication US20170224664A1, “POWDER ORAL SUSPENSION FORMULATIONS OF ANTIBACTERIAL AGENTS” (Cempra Pharmaceuticals, Inc., priority 2014, published 2017).
# Test system: human test subjects
# Experiment: Threshold bitterness
# Assay type: in vivo
# Details: 5-60 μg/mL in pH 6.0 phosphate buffer, 10 mL in mouth for 10 seconds
structure (smiles),measurement,value
"CC[C@H]1OC(=O)[C@@](C)(F)C(=O)[C@H](C)[C@@H](O[C@@H]2O[C@H](C)C[C@H](N(C)C)[C@H]2O)[C@](C)(OC)C[C@@H](C)C(=O)[C@H](C)[C@H]2N(CCCCn3cc(-c4cccc(N)c4)nn3)C(=O)O[C@]12C [SOL, solithromycin]",threshold or breakthrough bitterness relative to azithromycin,double that of azithromycin
same,threshold or breakthrough bitterness relative to clarithromycin,half that of clarithromycin
